{"source": "patent US6177441A", "about": "“Treating red blood cell solutions with anti-viral agents” (Cerus Corporation, priority 1998, dated 2001)", "key": {"cell-associated HIV [1]": {"test_system": "cell-associated HIV", "experiment": "Cell-associated HIV inactivation in the presence of red blood cells (Example 9)", "format": "cell-based, HIVIIIB", "conditions": "for Log Titer: 0 μg/ml 5.5 (QM), 5.7 (ICR-170)"}, "cell-associated HIV [2]": {"test_system": "cell-associated HIV", "experiment": "Inactivation of cell-associated HIV in H9 cells, microtiter plaque assay (Example 8)", "conditions": "for Log Titer: no QM 5.5"}, "cell-free HIV": {"test_system": "cell-free HIV", "experiment": "Cell-free HIV inactivation in the presence of red blood cells (Example 9)", "format": "cell-based"}}}
{"smiles": "COc1ccc2nc3cc(Cl)ccc3c(NC(C)CCCN(CCCl)CCCl)c2c1.Cl.Cl", "note": "(stereo not shown)", "values": [{"measurement": "Log Reduction", "setting": "cell-associated HIV [1]; 10 μg/ml", "value": 1.1}, {"measurement": "Log Titer", "setting": "cell-associated HIV [1]; 10 μg/ml", "value": 4.4}, {"measurement": "Log Titer", "setting": "cell-associated HIV [1]; 80 μg/ml", "value": 2.4}, {"measurement": "Log Reduction", "setting": "cell-associated HIV [2]; 3 μg/ml", "value": -2.8}, {"measurement": "Log Titer", "setting": "cell-associated HIV [2]; 3 μg/ml", "value": 2.7}, {"measurement": "Log Reduction", "setting": "cell-associated HIV [2]; 10 μg/ml", "value": "> -4.8"}, {"measurement": "Log Reduction", "setting": "cell-associated HIV [2]; 30 μg/ml", "value": "> -5.2"}, {"measurement": "Log Reduction", "setting": "cell-associated HIV [2]; 100 μg/ml", "value": -3.75}, {"measurement": "Log Titer", "setting": "cell-associated HIV [2]; 100 μg/ml", "value": 1.75}, {"measurement": "Log Reduction", "setting": "cell-associated HIV [2]; 150 μg/ml", "value": "> -5.2"}, {"measurement": "Log Titer", "setting": "cell-free HIV; 10 μg/ml, 0 μg/ml 5.7", "value": 3.9, "unit": "pfu/ml"}, {"measurement": "Log Reduction", "setting": "cell-free HIV; 40 μg/ml", "value": "> 4.3"}, {"measurement": "Log Reduction", "setting": "cell-free HIV; 80 μg/ml", "value": "> 4.3"}]}
